Consider five substances from patent US5047397A (California Biotechnology Inc., priority 1988, dated 1991).

The same purity stands for every peptide and may come from a single statement. For some assays here: Strings that start with PEPTIDE1 are HELM notation: dots part the residues, brackets hold end groups and non-standard residues.

Common to all, as to conditions: whole synthesis, reversed phase HPLC, scale of the general procedure One gm of resin (0.4 meq/gm), acetate salt
Series [1] is described as follows: general procedure: Boc solid-phase peptide synthesis; Boc-Tyr(2BrZ)-O-Resin; N,N'-dicyclohexylcarbodiimide.
Series [2] in a line: general procedure: Boc solid-phase peptide synthesis; Boc-Ala-pMBHA resin; N,N'-dicyclohexylcarbodiimide.
Series [3] can be described thus: general procedure: Boc solid-phase peptide synthesis; Boc-Ile-pMBHA resin; N,N'-dicyclohexylcarbodiimide.

For the substance “RSSCGRIDRIGAQSGCNSFRY”, the “final HPLC purity” value in series [1] was “minimum 97% purity”. As for “R-S-S-C-F-G-G-R-I-D-R-I-G-A-Q-S-G-C--N-S-F-R-Y”, the “final HPLC purity” value in series [1] is “minimum 97% purity”. Consider “PEPTIDE1{[2-NA].G.G.R.I.D.R.I.G.A.[am]}$$$$V2.0”, for which the “final HPLC purity” value in series [2] is “minimum 97% purity”. With “RSSCFGGRIDRIGAQSCNSFRY”, in series [1], the “final HPLC purity” value is on record as “minimum 97% purity”. Turning to “PEPTIDE1{[2-NOA].[NH(CH2)4CO].R.I.D.R.I.[am]}$$$$V2.0”, in series [3], the “final HPLC purity” value is on record as “minimum 97% purity”.
